Anti-infective test results gathered from many reports (values: NIAID ChemDB through PubChem).

All rows: tests in culture; species: Rhinovirus; measure: EC50

ECn is the concentration giving n% inhibition of infection, replication or growth. Neighbouring rows are from separate reports.

{"SMILES": "CN(C)c1nc(C(F)(F)F)nc2c1ncn2Cc1ccc(Cl)cc1Cl", "strain or isolate": "Serotype 19", "cell line": "M-HELA", "method": "plaque count", "value": ">8 µM"}
{"SMILES": "CCOC(=O)c1ccc(OCCCOc2ccc(-c3snc(SC)c3C#N)cc2)cc1", "strain or isolate": "Serotype 42 (group A)", "cell line": "HELA-OHIO", "method": "cytopathic effect", "value": ">2 µM"}
{"SMILES": "Cc1c(-c2ccccc2)n(-c2ccc(F)cc2)c2ccc(C(C)C)cc2c1=O", "strain or isolate": "31/41F", "cell line": "HELA-OHIO", "method": "cytopathic effect", "value": "0.088 µg/mL"}
{"SMILES": "CSc1nsc(-c2ccc(OC(C)(C)C)cc2)c1C#N", "strain or isolate": "Serotype 15 (group B)", "cell line": "HELA-OHIO", "method": "cytopathic effect", "value": ">40 µM"}
{"SMILES": "Cc1cc(Cl)ccc1Cn1cnc2c(N(C)C)nc(C(F)(F)F)nc21", "strain or isolate": "Serotype 4", "cell line": "M-HELA", "method": "plaque count", "value": ">8 µM"}
{"SMILES": "CSc1nsc(-c2ccc(OCc3ccccc3)cc2)c1C#N", "strain or isolate": "Serotype 72 (group A)", "cell line": "HELA-OHIO", "method": "cytopathic effect", "value": ">50 µM"}
{"SMILES": "Cc1c(-c2ccccc2)n(-c2cccc(F)c2)c2ccc(C(C)C)cc2c1=O", "strain or isolate": "61/6669-CV39", "cell line": "HELA-OHIO", "method": "cytopathic effect", "value": "0.29 µg/mL"}
{"SMILES": "CN(C)c1nc(C(F)(F)F)nc2c1ncn2Cc1ccc(S(C)(=O)=O)cc1", "strain or isolate": "Serotype 1B", "cell line": "M-HELA", "method": "plaque count", "value": "0.5 µM"}
{"SMILES": "CCOC(=O)c1ccc(OCCOc2ccc(-c3snc(SC)c3C#N)cc2)cc1", "strain or isolate": "Serotype 63 (group B)", "cell line": "HELA-OHIO", "method": "cytopathic effect", "value": ">2 µM"}
{"SMILES": "CCn1c2c(c(=O)c3cc(C(C)C)ccc31)Cc1ccccc1-2", "strain or isolate": "32/363", "cell line": "HELA-OHIO", "method": "cytopathic effect", "value": "0.61 µg/mL"}
{"SMILES": "CSc1nsc(-c2ccc(OCCOc3ccc(C#N)cc3)cc2)c1C#N", "strain or isolate": "Serotype 72 (group A)", "cell line": "HELA-OHIO", "method": "cytopathic effect", "value": ">2 µM"}
{"SMILES": "CSc1nsc(-c2ccccc2)c1C#N", "strain or isolate": "Serotype 42 (group A)", "cell line": "HELA-OHIO", "method": "cytopathic effect", "value": ">80 µM"}
{"SMILES": "CN(C)c1nc(C(F)(F)F)nc2c1ncn2Cc1ccccc1Cl", "strain or isolate": "Serotype 5", "cell line": "M-HELA", "method": "plaque count", "value": ">8 µM"}
{"SMILES": "CSc1nsc(-c2ccc(OCCc3ccccc3)cc2)c1C#N", "strain or isolate": "Serotype 42 (group A)", "cell line": "HELA-OHIO", "method": "cytopathic effect", "value": ">20 µM"}
{"SMILES": "CCOC(=O)/C=C/[C@H](C[C@@H]1CCNC1=O)NC(=O)[C@@H](CC(=O)[C@@H](NC(=O)c1cc(C)on1)C(C)C)Cc1ccc(F)cc1", "strain or isolate": "Isolate 26", "cell line": "OHIO HELA-I", "method": "cytopathic effect / visual reading", "value": "0.01 µg/mL"}
{"SMILES": "CSc1nsc(-c2ccc(OCCCc3ccccc3)cc2)c1C#N", "strain or isolate": "Serotype 85 (group B)", "cell line": "HELA-OHIO", "method": "cytopathic effect", "value": "5 µM"}
{"SMILES": "Cc1ccc(Cn2cnc3c(N(C)C)nc(C(F)(F)F)nc32)cc1", "strain or isolate": "Serotype 4", "cell line": "M-HELA", "method": "plaque count", "value": ">2.5 µM"}
{"SMILES": "Fc1cccc(Cn2cnc3c(Nc4cccc(F)c4)nc(C(F)(F)F)nc32)c1", "strain or isolate": "Serotype 86", "cell line": "M-HELA", "method": "plaque count", "value": ">5 µM"}
{"SMILES": "CSc1nsc(-c2ccc(OCCCOc3ccccc3)cc2)c1C#N", "strain or isolate": "Serotype 15 (group B)", "cell line": "HELA-OHIO", "method": "cytopathic effect", "value": ">20 µM"}
{"SMILES": "CC(C)Oc1ccc(Cn2cnc3c(N(C)C)nc(C(F)(F)F)nc32)cc1", "strain or isolate": "Serotype 14", "cell line": "M-HELA", "method": "plaque count", "value": ">8 µM"}
{"SMILES": "CN(c1cccc(F)c1)c1nc(C(F)(F)F)nc2c1ncn2Cc1cccc(F)c1", "strain or isolate": "Serotype 1B", "cell line": "M-HELA", "method": "plaque count", "value": "0.9 µM"}
{"SMILES": "CSc1nsc(-c2ccc(OCCCOc3ccc([N+](=O)[O-])cc3)cc2)c1C#N", "strain or isolate": "Serotype 70 (group A)", "cell line": "HELA-OHIO", "method": "cytopathic effect", "value": ">1 µM"}
{"SMILES": "CCO/N=C/c1ccc(OCCC2CCN(c3ccc(Cl)nn3)CC2)cc1", "strain or isolate": "5986 (ICAM-1 receptor group 18)", "cell line": "KB", "method": "neutral red", "value": "0.155 µM"}
{"SMILES": "CSc1ccc(Cn2cnc3c(N(C)C)nc(C(F)(F)F)nc32)cc1", "strain or isolate": "TYPE 1B", "cell line": "M-HELA", "method": "plaque count", "value": "0.07 µM"}

The last 2 rows once more:

{"SMILES": "CCO/N=C/c1ccc(OCCC2CCN(c3ccc(Cl)nn3)CC2)cc1", "strain or isolate": "5986 (ICAM-1 receptor group 18)", "cell line": "KB", "method": "neutral red", "value": "0.155 µM"}
{"SMILES": "CSc1ccc(Cn2cnc3c(N(C)C)nc(C(F)(F)F)nc32)cc1", "strain or isolate": "TYPE 1B", "cell line": "M-HELA", "method": "plaque count", "value": "0.07 µM"}